Data on 1 sequence can be found in PMC12051497.

The series concerns His-SUMO-AgtR (Pseudomonas aeruginosa PA14). Kind of series: EMSA. The following applies: 0, 4 or 8 uM AgtR; recombinant protein; protein details: N-terminal 6xHis-SUMO.

The exact form of at least one protein or probe is not confirmed.

“GTTCGCTTTCCTCAGTTTTTTGTCGTAGAGTGCTGACAC (double strand) [PcspC-5]”: the binding result is “binds”.
